Measured values from several laboratories, pooled; numbers as filed in NIAID ChemDB.

Common to all: whole-cell or culture tests; organism: HIV-1; method: syncytia; read-out: EC50

ECn: concentration that inhibits the pathogen or its effect by n%. Lines come from different laboratories, so protocols vary. An empty or dashed field is not shown.

structure	mutations	cells	strain or isolate	result
Cc1cccc(C)c1NC(=O)c1ccc(N)cc1		CEM	IIIB	>165 µM
COc1c(Cl)cc(C(=CCC[C@@H](C)[C@H]2CCC3C4C(C[C@H](O)[C@@]32C)[C@@]2(C)CC[C@@H](O)C[C@H]2C[C@H]4O)c2cc(Cl)c(OC)c(C(=O)O)c2)cc1C(=O)O		CEM + CEM-SS	RF	53.1 µM
CC(C)(C)[Si](C)(C)OC[C@@H]1CC[C@H](n2cnc3c(=O)n(CC(=O)O)cnc32)O1		CEM	IIIB	>200 µM
C=C(Cl)COc1cc(NC(=S)c2ccoc2C)ccc1Cl	RT-V106A	CEM	Nevirapine-resistant isolate (RT V106A)	0.51 µg/mL
O=C1NC[C@@H]2C34CC5CC(CC(C5)[C@H]3[C@]2(O)c2ccccc21)C4		CEM	IIIB	>20 µg/mL
Cc1occc1C(=O)Nc1ccc(Cl)c(SCC=C(Cl)Cl)c1	RT-E138K	CEM	TSAO-m3T-resistant (RT E138K)	0.68 µg/mL
O=C(NC12CC3CC(CC(C3)C1)C2)c1ccc([N+](=O)[O-])cc1		CEM	IIIB	>66.2 µM
O=C1c2ccccc2C(=O)c2c(Cl)ccc(O)c21		C8166	IIIB	39.73 µg/mL
COc1ccc(/C=C(\C#N)Sc2ccccc2O)cc1		CEM + CEM-SS	IIIB	>20 µg/mL
COC(=O)CC[C@@H]1C[C@H]2CCC[C@](NC(=O)c3ccccc3C(=O)N[C@@]34CCC[C@@H](C[C@H](CCC(=O)OC)C3)C4)(C2)C1		CEM	IIIB	>20 µg/mL
COCCOC(=O)c1cc(NC(=O)C2=C(C)OCCS2)ccc1Cl	RT-E138K	CEM	TSAO-resistant (RT E138K)	>10 µg/mL
Cc1occc1C(=S)Nc1ccc(Cl)c(/C=N/OC(C)(C)C)c1	RT-V179D	CEM	IIIB	0.48 µM
O=C(COc1ccc(F)cc1C(=O)c1ccccc1)Nc1ccccc1		C8166	RF	0.0401 µM
O=S(=O)(Cc1c2ccccc2cc2ccccc12)c1cccc[n+]1[O-]		CEM + CEM-SS	IIIB	>8 µg/mL
CCNc1ccccc1N1CCN(C(=O)c2cc3cc(OC)ccc3[nH]2)CC1		MT-2		>16 µM
O=C1c2ccc(Cl)cc2C(=O)N1C12CC3CC(CC(C3)C1)C2		CEM	IIIB	>25 µM
COCC1=C(C(=O)Nc2ccc(Cl)c(C(=O)OC(C)C)c2)SCCO1	RT-L100I	CEM	TIBO-resistant (RT L100I)	>10 µg/mL
C[C@H](CCC=C(c1cc(Cl)c(O)c(C(=O)O)c1)c1cc(Cl)c(O)c(C(=O)O)c1)[C@H]1CCC2C3C(C[C@H](O)[C@@]21C)[C@@]1(C)CC[C@@H](O)C[C@H]1C[C@H]3O		CEM + CEM-SS	RF	>150 µM
Cc1cn([C@@H]2O[C@H](COC(=O)C(C)(C)C)[C@@H](O)[C@H]2OC(=O)C(C)(C)C)c(=O)n(CC(=O)O)c1=O		CEM	IIIB	80 µM
CC1=C(C(=O)Nc2ccc(Cl)c(C(=O)OC3CCCC3)c2)SCCO1	RT-V106A	CEM	Nevirapine-resistant (RT V106A)	0.7 µg/mL
C/C(Cl)=C/COc1cc(NC(=O)c2ccoc2C)ccc1Cl	RT-Y181C	CEM	Pyridone-resistant (RT Y181C)	0.65 µg/mL
Cc1cn(C2OC(CO[Si](C)(C)C(C)(C)C)C3(OS(=O)(=O)C=C3N)C2O[Si](C)(C)C(C)(C)C)c(=O)n(/C=C\CO)c1=O		CEM	E138K	>5 µM
Nc1ccn([C@@H]2CC[C@H](CO)O2)c(=O)n1		MT-4	RF	0.07 µM
Cc1cn(C2OC(CO[Si](C)(C)C(C)(C)C)C3(OS(=O)(=O)C=C3N)C2O[Si](C)(C)C(C)(C)C)c(=O)n(CCCNC(=O)c2ccc(N=[N+]=[N-])cc2O)c1=O		CEM	E138K	>50 µM
CCN(CC)CCOc1ccc(NC(=O)COc2cc(OC)ccc2C(=O)c2ccccc2)cc1		C8166	RF	0.105 µM
COC(=O)Oc1ccc(NC(=O)C2=C(C)OCCS2)cc1C(=O)OC(C)C	RT-Y181C	CEM	PYR-resistant (RT Y181C)	9 µg/mL
CC1=CC=CN(C)C1SCc1cc(C)ccc1C		CEM + CEM-SS	IIIB	>4 µg/mL
CN(Cc1ncc[nH]1)Cc1ncccc1CCC#N		C8166	IIIB	15.8 µM
CCCCCCCCCC[N+](C)(C)CCCNCc1c(O)cc2c(c1O)-c1cc(ccc1O)[C@H]1NC(=O)[C@@H]3NC(=O)C4NC(=O)[C@@H](Cc5ccc(c(Cl)c5)Oc5cc3cc(c5O)Oc3ccc(cc3Cl)[C@@H](O)[C@H](NC1=O)C(=O)N[C@@H]2C(=O)O)NC(=O)[C@H](N)c1ccc(O)c(c1)Oc1cc(O)cc4c1		CEM	HE	9.5 µM
Nc1ccc(C(=O)NC23CC4CC(CC(C4)C2)C3)cc1		CEM	IIIB	>73.5 µM
Cc1cn(C2OC(CO[Si](C)(C)C(C)(C)C)C3(OS(=O)(=O)C=C3N)C2O[Si](C)(C)C(C)(C)C)c(=O)n(/C=C/CO)c1=O		CEM	E138K	>2 µM
Nc1ccn([C@H]2CS[C@@H](COC(=O)CCCCCNCCCCCNCc3ccccc3)O2)c(=O)n1		Macrophage + Monocytes/macrophages	PAR	0.001 µM
CCC1=C(C(=O)Nc2ccc(Cl)c(C(=O)OC(C)C)c2)SCCO1	RT-V106A	CEM	Nevirapine-resistant (RT V106A)	6 µg/mL
O=C1c2ccccc2C(=O)N1C12CC3CC(CC(C(=O)O)(C3)C1)C2		CEM	IIIB	>20 µg/mL
COC(=O)Cn1c(=O)c(C)cn([C@@H]2O[C@H](CO[Si](C)(C)C(C)(C)C)[C@@H](O)[C@H]2O[Si](C)(C)C(C)(C)C)c1=O		CEM	IIIB	>10 µM
CC(C)=CCOc1cc(NC(=S)c2ccoc2C)ccc1Cl	RT-Y188L	CEM	IIIB	0.05 µg/mL
O=c1[nH]c(=S)cnn1[C@H]1C[C@H](O)[C@@H](CO)S1		CEM	IIIB	>100 µM
CN(Cc1nc2ccccc2[nH]1)Cc1ncccc1CCCNC(=O)Cc1ccc(F)cc1		C8166	IIIB	4.433 µM
Cc1cn([C@H]2C[C@H](N=[N+]=[N-])[C@@H](CO)O2)c(=O)[nH]c1=O		C8166	A17	0.00763 µM
COC(=O)Cn1c(=O)c(C)cn([C@@H]2O[C@H](CO[Si](C)(C)C(C)(C)C)[C@@H](O[Si](C)(C)C(C)(C)C)[C@H]2O)c1=O		CEM	IIIB	>2 µM
Cn1c(=O)cnn([C@H]2C[C@H](O)[C@@H](CO)S2)c1=O		CEM	IIIB	>100 µM
CC(C)OC(=O)c1cc(NC(=S)OC(C)C)ccc1Cl	RT-Y188H	CEM	IIIB	2.1 µM
COc1ccc(NC(=O)c2ccoc2C)cc1OCC=C(Cl)Cl	RT-K103N	CEM	TIBO R82913-resistant (RT K103N)	10 µg/mL
CN1CCN(c2ccnc3nc(CN(C)Cc4ncccc4CCC#N)[nH]c23)CC1		C8166	IIIB	3.536 µM
C=C(C)[C@@H]1CC[C@]2(C(=O)NCCCCCCCC(=O)N[C@@H](CC(C)C)[C@@H](O)CC(=O)O)CC[C@]3(C)[C@H](CC[C@@H]4[C@@]5(C)CC[C@H](O)C(C)(C)[C@@H]5CC[C@]43C)[C@@H]12	GP41-E109D A109D	HeLa P4 + HeLa	LAI	<10 µM
Cc1ccccc1CNC(=O)COc1ccc(Cl)cc1C(=O)c1ccccc1		C8166	RF	1.27 µM
C=C1CC[C@@H](OC(=O)CCC(=O)OC2CC(COP(=O)(O)OC3CC(COP(=O)(O)OC4CC(CO)OC4n4cnc5c(N)ncnc54)OC3n3cnc4c(N)ncnc43)OC2n2cnc3c(N)ncnc32)C/C1=C/C=C1\CCC[C@]2(C)[C@@H]([C@@H](C)/C=C/[C@H](C)C(C)C)CC[C@@H]12		SupT1 + Sup-T1	IIIB	<300 µM
CCCOC(=O)c1ccc(C)c(NC(=O)C2=C(C)OCCS2)c1	RT-Y181C	CEM	PYR-resistant (RT Y181C)	>10 µg/mL
Nc1cnn([C@H]2C[C@H](O)[C@@H](CO)S2)c(=O)n1		CEM	IIIB	>100 µM
CS(=O)(=O)Oc1ccc(Cl)c2c1C(=O)c1ccccc1C2=O		C8166	IIIB	17.9 µg/mL
CN(Cc1nc2ccccc2[nH]1)Cc1ncccc1CCC(=O)NC1CC1		C8166	IIIB	14.4 µM
O=C1c2ccc([N+](=O)[O-])cc2C(=O)N1C12CC3CC(CC(C3)C1)C2		CEM	IIIB	>304 µM
CC(C)(C)OC(=O)N(CCCCCCOC(=O)OC[C@H]1O[C@@H](n2ccc(N)nc2=O)CS1)CCCCCN(Cc1ccccc1)C(=O)OC(C)(C)C		MT-4	LAV	1 µM
CC(C)OC(=S)Nc1ccc(Cl)c(OC(F)F)c1		CEM	IIIB	2.62 µM
CN(Cc1nc2ccccc2[nH]1)Cc1ncccc1CCC(N)=O		C8166	IIIB	19.1 µM
CCCCCOC(=O)c1cc(NC(=O)C2=C(C)OCCS2)ccc1Cl		CEM	IIIB	0.6 µg/mL
O=C(COc1ccc(Cl)cc1C(=O)c1ccccc1)Nc1ccccc1		C8166	RF	0.0005 µM
CCOC(=O)c1cc(NC(=O)C2=C(C)OCCS2)ccc1Cl	RT-V106A	CEM	Nevirapine-resistant (RT V106A)	>10 µg/mL
NC12CC3CC(CC(C3)C1C(=O)c1ccccc1C(=O)O)C2		CEM	IIIB	>100 µg/mL
COC(=O)Cn1c(=O)c(C)cn([C@H]2C=C[C@@H](CO[Si](C)(C)C(C)(C)C)O2)c1=O		CEM	IIIB	>10 µM
Cc1occc1C(=O)Nc1ccc(Cl)c(/C=N/N(C)C)c1	RT-V106A	CEM	Nevirapine-resistant (RT V106A)	<2 µg/mL
Cc1c(C)c2c(c(C)c1OC(=O)OC1CC(COP(=O)(O)OC3CC(COP(=O)(O)OC4CC(CO)OC4n4cnc5c(N)ncnc54)OC3n3cnc4c(N)ncnc43)OC1n1cnc3c(N)ncnc31)CCC(C)(CCCC(C)CCCC(C)CCCC(C)C)O2		SupT1 + Sup-T1	IIIB	<300 µM
Nc1ccn([C@H]2CS[C@@H](COC(=O)CCCCCNCc3ccccc3)O2)c(=O)n1		MT-4	LAV	10 µM
CC(=O)Oc1ccc(Cl)c2c1C(=O)c1ccccc1C2=O		C8166	IIIB	9.81 µg/mL
C=C(Cl)COc1cc(NC(=S)c2ccsc2C)ccc1C#N	RT-Y181C	CEM	Pyridone-resistant (RT Y181C)	0.44 µg/mL
Cc1cn([C@@H]2O[C@H](CO[Si](C)(C)C(C)(C)C)[C@@H](O)[C@H]2O[Si](C)(C)C(C)(C)C)c(=O)n(CCCCC(=O)O)c1=O		CEM	IIIB	≥10 µM
CCCCCCCCCCCCCCCC(=O)OCC(COC(=O)CCC(=O)OC1CC(COP(=O)(O)OC2CC(COP(=O)(O)OC3CC(CO)OC3n3cnc4c(N)ncnc43)OC2n2cnc3c(N)ncnc32)OC1n1cnc2c(N)ncnc21)OC(=O)CCCCCCCCCCCCCCC		SupT1 + Sup-T1	IIIB	<300 µM
Cc1ccc(C)c(C(C)S(=O)(=O)c2cccc[n+]2[O-])c1		CEM + CEM-SS	IIIB	9.5 µg/mL
CC1=C(C(=O)Nc2ccc(Cl)c(C(=O)OC3CCCCC3)c2)SCCO1	RT-L100I	CEM	TIBO-resistant (RT L100I)	0.85 µg/mL
O=C1c2ccccc2C(=O)N1CC12CC3CC(CC(C3)C1)C2		CEM	IIIB	>4 µg/mL
O=C(CCCCCNCCCCNCc1ccccc1)Nc1ccn([C@@H]2CS[C@@H](CO)O2)c(=O)n1		MT-4	LAV	20 µM
COc1ccc(NC(=O)C2=C(C)OCCS2)cc1OCC=C(Cl)Cl	RT-L100I	CEM	TIBO R82150-resistant (RT L100I)	10 µg/mL
CN1N=C(N)c2cn([C@@H]3O[C@H](COP(=O)(O)O)[C@@H](O)[C@H]3O)c3ncnc1c23		CEM + CEM-SS	G-691	0.043 µM
C=C1CC[C@@H](OC(=O)CCC(=O)OCC2CC(OP(=O)(O)OCC3CC(OP(=O)(O)OCC4CC(O)C(n5cnc6c(N)ncnc65)O4)C(n4cnc5c(N)ncnc54)O3)C(n3cnc4c(N)ncnc43)O2)C/C1=C/C=C1\CCC[C@]2(C)[C@@H]([C@@H](C)/C=C/[C@H](C)C(C)C)CC[C@@H]12		SupT1 + Sup-T1	IIIB	<300 µM
CCN(CC)CCOc1ccc(NC(=O)COc2ccccc2C(=O)c2ccccc2)cc1		C8166	RF	0.0112 µM
Cc1sccc1C(=O)Nc1ccc(Cl)c(OCC=C(Cl)Cl)c1		CEM	IIIB	0.09 µg/mL
CCCCCCCCn1c(=O)cnn([C@H]2C[C@H](O)[C@@H](CO)S2)c1=O		CEM	IIIB	>20 µM

7 of the rows above, restated:

structure	mutations	cells	strain or isolate	result
O=C(NC12CC3CC(CC(C3)C1)C2)c1ccc([N+](=O)[O-])cc1		CEM	IIIB	>66.2 µM
Nc1ccc(C(=O)NC23CC4CC(CC(C4)C2)C3)cc1		CEM	IIIB	>73.5 µM
Cc1cn(C2OC(CO[Si](C)(C)C(C)(C)C)C3(OS(=O)(=O)C=C3N)C2O[Si](C)(C)C(C)(C)C)c(=O)n(/C=C\CO)c1=O		CEM	E138K	>5 µM
C=C(Cl)COc1cc(NC(=S)c2ccoc2C)ccc1Cl	RT-V106A	CEM	Nevirapine-resistant isolate (RT V106A)	0.51 µg/mL
Cc1cn([C@H]2C[C@H](N=[N+]=[N-])[C@@H](CO)O2)c(=O)[nH]c1=O		C8166	A17	0.00763 µM
Cc1ccccc1CNC(=O)COc1ccc(Cl)cc1C(=O)c1ccccc1		C8166	RF	1.27 µM
Nc1ccn([C@H]2CS[C@@H](COC(=O)CCCCCNCc3ccccc3)O2)c(=O)n1		MT-4	LAV	10 µM